# In publication PMC3742671, “Structure, Antimicrobial Activities and Mode of Interaction with Membranes of Bovel Phylloseptins from the Painted-Belly Leaf Frog, Phyllomedusa sauvagii” (PLoS ONE, 2013):
# Key:
# [1] = Differential scanning calorimetry on multilamellar vesicles; details: mean from six scans
# [2] = as above; details: mean from six scans; remark: listed apart in the source
Substance,Δ(ΔH) total enthalpy of main phase transition ([1]; peptide/lipid 1:50),Δ(ΔH) total enthalpy of main phase transition ([1]; peptide/lipid 1:100),Δ(ΔH) total enthalpy of main phase transition ([2]; peptide/lipid 1:50),Δ(ΔH) total enthalpy of main phase transition ([2]; peptide/lipid 1:100)
FLSLIPHIVSGVASIAKHF-NH2 [PLS-S1],−70.1%,−53.3%,−75.9%,−53.4%
FLSLIPHIVSGVASLAKHF-NH2 [PLS-S2],−40.8%,−19.6%,−50.0%,−30.2%
FLSMIPHIVSGVAALAKHL-NH2 [PLS-S4],−66.9%,−60.9%,−80.2%,−25.9%

# Ends that are not written are not given here.
